Assay results published in paper PMC7846482 (The Journal of Biological Chemistry, 2021).

Biological target: T1, SARS-CoV-2 spike glycoprotein (SARS-CoV-2 Wuhan-Hu-1, UniProt P0DTC2, stabilised, glycosylated)
T1 construct: also called SΔTM; SΔTM-SBP
Assay: western blotting
Settings: both partners purified

B1: mouse anti-SARS-CoV-2 spike monoclonal antibody clone R31 (antibody, V domains shown)
VH: QVQLQQSGAELVRPGTSVKISCKASYTFTNYWLAWVKQRPGHGLEWIGDIYPGGAYTNFNEKFKGKATLTADTSSSTAYMQLSSLTSEDSAVYFCARDGHYGYAMDYWGQGTSVTVSS
VL: DIVMTQAAFSNPVTLGTSASISCRSSKSLLHSNGITYLYWYLQKPGQSPQLLIYQMSDLASGVPDRFSSSGSGTDFTLRISRVEAEDVGVYYCAQNLELPRTFGGGIKLEIK
B1: binds.
